In article PMC10478095, “Mycobacterium tuberculosis PE/PPE proteins enhance the production of reactive oxygen species and formation of neutrophil extracellular traps” (Frontiers in Immunology, 2023) one finds Kd data, which are given here for one molecule.

The target in the assay is T1, PPE26 (Rv1789) from Mycobacterium tuberculosis (Mycobacterium tuberculosis H37Rv, UniProt Q79FK6 1-393).
T1 sequence: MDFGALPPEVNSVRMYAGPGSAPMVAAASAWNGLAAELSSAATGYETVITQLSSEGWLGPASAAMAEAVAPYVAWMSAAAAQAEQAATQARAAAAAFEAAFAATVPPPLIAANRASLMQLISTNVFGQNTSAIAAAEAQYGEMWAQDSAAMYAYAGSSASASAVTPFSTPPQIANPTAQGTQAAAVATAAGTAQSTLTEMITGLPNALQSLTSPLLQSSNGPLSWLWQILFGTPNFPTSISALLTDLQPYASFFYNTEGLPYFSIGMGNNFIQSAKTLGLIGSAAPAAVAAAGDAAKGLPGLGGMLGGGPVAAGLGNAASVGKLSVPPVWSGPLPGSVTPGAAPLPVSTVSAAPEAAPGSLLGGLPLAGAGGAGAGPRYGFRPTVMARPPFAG
The experiment in a line: BLI. The conditions noted are these: both partners purified.

B1: PE31 (Rv3477) from Mycobacterium tuberculosis (natural protein)
chain: MSFTAQPEMLAAAAGELRSLGATLKASNAAAAVPTTGVVPPAADEVSLLLATQFRTHAATYQTASAKAAVIHEQFVTTLATSASSYADTEAANAVVTG
The Kd is the concentration at which binding is half-saturated. Low values mean higher affinity, high ones lower affinity. As to B1, the Kd turned out to be 2.7 ± 0.62 µM.
